# Experimental data as given in the supplement of paper PMC9931576.
# Residue numbers refer to the chain shown, from its start. Human monoclonal antibodies against the spike receptor-binding domain (heavy:light variable regions). IC50 against pseudoviruses bearing the spike of naturally observed variants; lower = stronger; >10 µg/ml means not reached at the top dose. No active / inactive call. The stated detection limit is 0.0005 µg/ml; values near or below 0.001 µg/ml lie at the floor of the assay.
# B1: BD56-1669 (protein)
# chain 1: EVQLLESGGGLVQPGGSLRLSCAASGFSFSSYAMNWVRQAPGKGLQWVSVIYSGGSSTSYTDSVKGRFTIARDDSKNTLFLQMNRLRAEDTAVYYCTKEASYCTSTRCHPSEYFQHWGQGTLVTVSS
# chain 2: SFVLTQPPSVSVAPGKTARITCGGDSIASKNVHWYQQKPGQAPVLVVYDDSDRPSGIPERFSGSNSGNTATLTISRVEPGDEADYYCQVWDGSSDHPYVFGSGTKVTVL
# B2: BD56-1690 (protein)
# chain 1: QVQLVQSGAEVKKPGSSVKVSCKASGGTFSSYTISWVRQAPGQGLEWMGWIIPILNIPNYAQKFQGRVTLTADKSTSTAYLEVISLRSEDTAVYFCALQRGYSGYGSVSYFENWGQGTLVTVSS
# chain 2: QSALTQPPSVSGAPGQRVTISCTGSNSNIGAGYDVHWYQQLPGIAPKLLIYGNSNRPSGVPDRVSGSKSGTSASLAITGLQAEDEADYYCQSYDSSLGGDVVFGGGTKLTVL
# B3: BD56-1701 (protein)
# chain 1: QVRLVESGGGVVQPGTSLRLSCVASGFTFSSYTLHWVRQAPGKGLEWVGFVSHDGNSKHYADSVRGRFTISRDNSKNTLYLQMNSLRVEDTAVYYCARVPYGSGSLTGYFDYWGQGTLVTVSS
# chain 2: SYVLIQPPSVSVAPGKTARITCGGDDIGSKNVHWYQQKPGQAPVLVVYDDHDRPAGTPERLSGSNSGNTATLTISRVEAGDEADYYCQVWDSSSDPWVFGGGTKLTVL
# B4: BD56-1683 (protein)
# chain 1: EVQLVESGGGLVQPGGSLRLSCAASGFTFRNYDMHWVRQLTGKGLEWVSTIGTAGDSYYPDSVRGRFTISRENARNSLYLQIDRLRAGDTAVYYCARGGEGYRFGSWYFDVWGRGTLVTVSS
# chain 2: DIQMTQSPSSLSASVGDRVTITCRASQSISNFLNWYQQKPGKAPKLLIYGASNLQTGVPSRFSGSGSGTDFTLTISSLQPEDFATYYCQQCYSTDITFGQGTRLEIK
# B5: BD56-1671 (protein)
# chain 1: EVHLVESGGGLVQPGGSLRLTCAASGFTFSEYDIHWVRQPTGKGLEWVSAIGTTGDTYYEDSVKGRFTISRENAKKSLFLQMNNLKAGDTAVYYCARGGSGFHWYFDVWGRGTLVTVSS
# chain 2: DIQMTQSPFSLSASVGDRVTITCRASQTIGRYLNWYQQKPGKAPELLIYAASSLQSGVPSRFSGSGSGTDFTLTISSLQPEDFATYYCQQSYVMPPPTFGQGTKVEIK
# B6: BD56-1667 (protein)
# chain 1: QVHLVQSGAEVKRPGSSVKVSCKASGGTFSSFGISWVRQAPGQGLEWMGRIIPIIGVPSYAQKFQGRVTITADKSTTTAYMELSSLRSEDTAVYYCARDVGYSGYGATAWFDPWGQGTLVTVSS
# chain 2: QSVLTQPPSVSGAPGQRVTISCTGSNSNIGAGYDVHWYQQLPGTAPKLLIYRNNNRPSGVPDRFSGSKSGTSASLAITGLHSDDEADYYCQSYDSSLSDSVFGRGTKLTVL
# B7: BD56-1694 (protein)
# chain 1: QVQLVQSGAEVKKPGSSVKVSCKAPGGTFSSYAISWVRQAPGQGLEWMGRIIPILGIPNYAQKFQDRVTITADKSTSTAYMDLSSLRSEDTAVYYCARDESRSCSSTTCFDYWGQGTLVTVSS
# chain 2: B6 chain 2 with T44A, R52N, H81Q, S82A, A86S, D87G, S100V, R104G
# B8: BD56-1697 (protein)
# chain 1: EVQLLESGGGLVHPGGSLRLSCAASGFTFSSYAMNWVRQAPGKGLEWVSVISDSGDDTYYGDSVMGRFTISRDNSKNTLYLQLNSLRAEDTAAYYCAKSGYCSGMTCPSGYYIDYWGQGTLITVSS
# chain 2: DIQMTQSPSSLSASVGDRVTITCRASQHISSFLNWYQQKPGKAPKLLIYGASSLQSGVPSRFSGSGFGTDFTLAISSLQPEDFAAYYCQQSYTTPYTFGQGTKLEIK
# B9: BD56-1692 (protein)
# chain 1: EVQLVESGGGLVQPGRSLRLSCAASGFTFDDYAIHWVRQAPGKGLEWLSGSTWNSGTIGYADSVKGRFIISRDNAKNSLYLQMNRLRAEDTALYYCAKDQNGDGERAFDYWGQGTLVTVSS
# chain 2: SYVLTQPPSVSVAPGQTARITCGGNNIGSKSVHWYQQKPGQAPVLVVYDDADRPSGIPERFSGSNSGNTATLTISRVEAGDEADYSCQVWDSSGDQVVFGGGTKLTVL
# B10: BD56-1664 (protein)
# chain 1: QVQLVESGGGVVQPGRSLRLSCAASGFTFSNYAMHWVRQAPGKGLEWVAVILYDGRNKLYADSVKGRFTISRDNSKNTLFLQMNSLRAEDTAVYYCARDEAMVGITTLFDYWGQGTLVTVSS
# chain 2: DIQMTQSPSSLSASVGDRVTITCRASQGIRNDLNWYQHKPGKAPKLLIYAASNLQSGVPSRFSGSGSGTDFTLTISSLQPEDFATYYCQQSYSTPPWTFGQGTKVEIK
# B11: BD56-1696 (protein)
# chain 1: QVQLVESGGGVVRPGRSLRLSCAASGFTFSSYSMHWVRQAPGKGLQWVAVILYDGSYKDYADSVKGRFTISRDNSKNTLYLQMNSLRPEDTAVYYCARDWGTVVTLFDCWGQGALVTVSS
# chain 2: B10 chain 2 with G28S, R30K, N31T, D32Y, Y36F, H38Q, Y49F, A50G, N53S, S93N
# B12: BD56-1703 (protein)
# chain 1: QVHLVESGGGVVRPGGSLRLSCSASGFTFSRYDMHWVRQAPGKGLEWVAVISSDGNMKFYADSVKGRFTVSRDSSKNTLHLQMNSLRVEDTAFYYCAKDVGSAAPVDYFVSWGQGTLVTVSS
# chain 2: B10 chain 2 with S26T, G28S, D32Y, H38Q, K45Q, A50S, N53S, D70H, S93N
# Biological target: SARS-CoV-2 Omicron BA.1 spike pseudovirus
# Test: pseudovirus neutralization IC50; higher = weaker neutralization
# Protocol: (§1)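 Single-round VSV luciferase pseudovirus mixed with antibody dilutions for 1 h and put on Huh-7 cells for about a day; IC50 from the dose curve.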
row,Binder,pseudovirus neutralization IC50 [µg/mL]
1,B1,> 10
2,B2,0.121
3,B3,0.937
4,B4,> 10
5,B5,> 10
6,B6,0.0526
7,B7,0.0261
8,B8,0.0019
9,B9,0.0109
10,B10,> 10
11,B11,> 10
12,B12,2.68

# Biological target: SARS-CoV-2 Omicron BA.2 spike pseudovirus
# Test: as above
# Protocol: as §1
row,Binder,pseudovirus neutralization IC50 [µg/mL]
1,B1,> 10
2,B2,0.0814
3,B3,1.33
4,B4,> 10
5,B5,> 10
6,B6,0.0759
7,B7,0.00936
8,B8,0.000753
9,B9,0.021
10,B10,> 10
11,B11,> 10
12,B12,1.9

# Biological target: SARS-CoV-2 Omicron BA.2.75 spike pseudovirus
# Test: as above
# Protocol: as §1
row,Binder,pseudovirus neutralization IC50 [µg/mL]
1,B1,> 10
2,B2,0.15
3,B3,1.62
4,B4,> 10
5,B5,> 10
6,B6,0.0679
7,B7,0.0236
8,B8,0.000703
9,B9,0.0225
10,B10,> 10
11,B11,> 10
12,B12,4.31

# Biological target: SARS-CoV-2 Omicron BA.5 spike pseudovirus
# Test: as above
# Protocol: as §1
row,Binder,pseudovirus neutralization IC50 [µg/mL]
1,B1,> 10
2,B2,> 10
3,B3,> 10
4,B4,> 10
5,B5,> 10
6,B6,2.09
7,B7,> 10
8,B8,0.0112
9,B9,> 10
10,B10,> 10
11,B11,> 10
12,B12,3.17

# Biological target: SARS-CoV-2 Omicron BQ.1.1 spike pseudovirus
# Test: as above
# Protocol: as §1
row,Binder,pseudovirus neutralization IC50 [µg/mL]
1,B1,> 10
2,B2,> 10
3,B3,> 10
4,B4,> 10
5,B5,> 10
6,B6,> 10
7,B7,> 10
8,B8,0.0354
9,B9,> 10
10,B10,> 10
11,B11,> 10
12,B12,2.21

# Biological target: SARS-CoV-2 Omicron XBB spike pseudovirus
# Test: as above
# Protocol: as §1
row,Binder,pseudovirus neutralization IC50 [µg/mL]
1,B1,> 10
2,B2,> 10
3,B3,1.47
4,B4,> 10
5,B5,> 10
6,B6,2.01
7,B7,> 10
8,B8,> 10
9,B9,> 10
10,B10,> 10
11,B11,> 10
12,B12,2.89

# Biological target: SARS-CoV-2 early D614G spike pseudovirus
# Test: as above
# Protocol: as §1
row,Binder,pseudovirus neutralization IC50 [µg/mL]
1,B1,7.39
2,B2,0.198
3,B3,1.91
4,B4,> 10
5,B5,4.99
6,B6,0.646
7,B7,0.0505
8,B8,0.000991
9,B9,0.0107
10,B10,3.45
11,B11,0.455
12,B12,0.451
